T1: G protein of RSV B/18537 (virus, ATCC Cat. No. VR-1580) (Respiratory syncytial virus B/18537, UniProt P20896 1-292)
T1 sequence: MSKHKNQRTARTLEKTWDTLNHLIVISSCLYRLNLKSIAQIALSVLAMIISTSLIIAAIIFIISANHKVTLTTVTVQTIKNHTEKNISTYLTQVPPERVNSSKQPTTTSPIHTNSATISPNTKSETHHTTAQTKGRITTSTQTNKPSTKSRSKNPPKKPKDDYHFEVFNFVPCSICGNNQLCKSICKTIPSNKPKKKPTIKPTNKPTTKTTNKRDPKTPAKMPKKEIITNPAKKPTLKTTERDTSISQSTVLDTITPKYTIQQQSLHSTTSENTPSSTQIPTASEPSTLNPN

T2: G protein of RSV A/A2 (virus, ATCC Cat. No. VR-1540) (Respiratory syncytial virus A/A2, UniProt P03423 1-298)
T2 sequence: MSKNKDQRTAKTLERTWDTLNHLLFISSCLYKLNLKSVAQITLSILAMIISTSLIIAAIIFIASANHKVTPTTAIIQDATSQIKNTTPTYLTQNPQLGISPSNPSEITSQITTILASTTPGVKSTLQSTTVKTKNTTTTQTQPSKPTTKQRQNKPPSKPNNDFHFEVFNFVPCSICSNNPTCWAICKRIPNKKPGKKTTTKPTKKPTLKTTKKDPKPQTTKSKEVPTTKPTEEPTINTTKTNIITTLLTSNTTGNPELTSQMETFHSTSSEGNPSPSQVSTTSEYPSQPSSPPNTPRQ

B1: CB048.3 (antibody, V domains shown)
VH: QVQLVESGGGVVQPGRSLRLSCAASGFTFSNHGMHWVRQAPGKGLEWVAVISYDGNKKYYADSVKGRFTVSRDNSKNTLSLQMDSLRAEDTAIYYCAKTTFYFDDSNYYEYLDYWGQGTLVTVSS
VL: DIQLTQSPSFLSASVGDRVTITCRASQGIRSYLAWYQQKPGKAPKLLIYAASTLQSGVPSRFSGGGSGTEFTLTISSLQPEDSATYYCQQLNTSPPYTFGQGTKLEIK
B2: CB028.2 (antibody, V domains shown)
VH: QVQLVQSGAEVKKPGASVKVSCKASGYTFTTYGITWVRQAPGQGLEWMGWISGDSDNTNYAQNLQGRVTLTTDISTRTAYMELRSLKPDDTAMYYCARALAKWYCSSSSCFCGGGSCYSDYWGQGTLVTVSS
VL: DIQMTQSPSSLSASVGDRVTITCRASQGMSNYLNWYQQKPGKAPELLIYAASTLQSGVPSRFSGSGSGTDFTLTINSLQPEDFATYFCQQSFSTPLTFGGGTKVEIK
B3: CB002.1 (antibody, V domains shown)
VH: QVQLQESGPRLVKPSETLSLTCTVSGGSTSSYFWNWIRQPPGKGLEWIGYIYGSGSADYNPSLKSRVTISIDTSKTQFSLKLTSVTAADTAVYYCARSGFCTNDACYRRGSWFDPWGQGTLVTVSS
VL: DIQMTQSPSSLSASVGDRVTITCRASQSIDNYLNWYQQKPGKAPKLLIYAASSLQSGVPSRFSGSGSGTDFTLTVSSLHPEDFATYYCQQSYSTLTWTFGQGTKVEIK
notes: also called CB2.1
B4: CB058.1 (antibody, V domains shown)
VH: EVQLVESGGGLVQPGGSLRLSCVASGFTFSSYAMSWVRQAPGKGLEWVSAIRGSVDNTYYADSVKGRFTISRDNSKNTLYLQMNSLRVEDTAVYYCAKDPALYCSGETCFSDLTDWGQGTLVTVSS
VL: DIQMTQSPSSLSASVGDRVTITCRASQGINNYLAWFQQKPGKAPKSLIYAASTLPSGVPSRFSGSGSGTDFTLTISSLQPEDSATYFCQHYIRYPHTFGQGTKLEIK

How the values were obtained:
[1] = target: T1, G protein of RSV B/18537 (virus, ATCC …); assay: cell-based or functional assay
[2] = target: T2, G protein of RSV A/A2 (virus, ATCC Cat. …); assay: cell-based or functional assay

Binder | Neutralization IC50 (plaque reduction assay, Vero cells) [1] [ng/mL] | Neutralization IC50 (plaque reduction assay, Vero cells) [2] [ng/mL]
B1 | 8 | –
B2 | – | 11
B3 | 23.4 | –
B4 | 4.2 | –

Reference: US20160145321A1 (CRUCELL HOLLAND B V, published 2016)
